In patent US20240165214A1, “COMPOSITIONS AND METHODS FOR STABILIZATION OF ALLOSTERIC PROTEINS” (priority 2021, published 2024):

System: mAb21
Test: mAb21 binding time course to immobilized fimbriae and three-state model

B1: FimH^FocH: recombinant FimH variant with FocH-derived substitution in its pilin domain altering the interdomain interface (protein)
chain: FACKTANGTAIPIGGGSANVYVNLAPVVNVGQNLVVDLSTQIFCHNDYPETITDYVTLQRGSAYGGVLSNFSGTVKYSGSSYPFPTTSETPRVVYNSRTDKPWPVALYLTPVSSAGGVAIKAGSLIAVLILRQTNNYNSDDFQFVWNIYANNDVVVPTGGCDVSARDVTVTLPDYPGSVPIPLTVRCDQTQSVSYTLSGSVADAGNSIFTNTASFSPAQGVGVQLTRNGTIIPANNTVSLGAVGTSAVSLGLTANYARTGGQVTAGNVQSIIGVTFVYQ
time to 50% of the maximal optical density (OD50) of mAb21 binding (absence of mannose): ~40 s | mAb21 binding to fimbriae (absence of mannose, 1 h): recognized well | mAb21 accumulation level in absence of mannose, of level in mannose presence (earliest time points): 70-75% | time to 50% of the maximal optical density (OD50) of mAb21 binding (presence of mannose): ~20 s
